Pooled drug test results. Numbers come from NIAID ChemDB, via PubChem.

Shared fields: tests in culture; agent: Herpes simplex virus 2; read-out: EC50

Rows are shuffled and stem from different studies.

compound,strain or isolate,cell line,read by,value
CCn1cc(C(N)=O)c(=O)c2ccc(Cl)cc21,-,VERO,plaque count,>100 µg/mL
O=c1[nH]c(=O)n([C@@H]2O[C@H](CO)[C@@H](O)[C@@H]2O)cc1/C=C/Br,-,HEL,plaque count,138 µM
Nc1ncnc2c1ncn2C[C@@H](CO)OCP(=O)(O)O,3 strains,Primary rabbit kidney cells,cytopathic effect,4 µg/mL
NC(=O)c1c[nH]c2cc(-c3ccncc3)ccc2c1=O,-,VERO,plaque count,>12.5 µg/mL
COc1cc([C@@H]2c3cc4c(cc3[C@H](O)[C@H]3COC(=O)[C@H]23)OCO4)cc(OC)c1OC,G,MRC-5,-,0.01 µg/mL
CC(C)(C)C(=O)OCOC(=O)CN(CC(=O)OCOC(=O)C(C)(C)C)P(=O)(OC[C@H]1O[C@@H](n2cnc3c(Cl)nccc32)C[C@@H]1O)Oc1ccccc1,G,HEL,-,>20 µM
Nc1ncnc2c1ncn2C[C@H](O)CO,196,PRK,cytopathic effect,>100 µg/mL
Nc1ccnc2c1ncn2C1CC(O)C(CO)O1,G,HEL,-,>100 µM
CC1=C(C/C=C(\C)CCCC(C)CCCC(C)CCCC(C)C)C(=O)c2ccccc2C1=O,-,-,plaque count,210 µM
O=c1[nH]c(=O)n([C@@H]2O[C@H](CO)[C@@H](O)[C@H]2O)cc1/C=C/Br,-,HEL,plaque count,>917 µM
O=c1[nH]c(=O)n([C@H]2C[C@H](O)[C@@H](CO)O2)cc1F,G,MRC-5,plaque count,200 µM
C[C@]12CC[C@H](O)C[C@H]1CC[C@@H]1[C@@H]2C[C@@H](O)[C@]2(C)[C@@H](C3=CC(=O)OC3)CC[C@]12O,333,GMK AH1,plaque count,1.22 µM
O=C(O)P(=O)(O)O,G,-,plaque count,165 µM
COC(=O)OP(=O)(CO[C@H](CO)Cn1cnc(N)nc1=O)OC(=O)OC,Lyons strain,-,cytopathic effect,0.068 µg/mL
N#Cc1cn([C@@H]2O[C@H](CO)[C@@H](O)[C@H]2O)c2ncnc(N)c12,G,PRK,cytopathic effect,≥0.04 µg/mL
Nc1nc(=O)n([C@H]2O[C@@H](CO)C[C@H]2F)cc1F,-,VERO,-,>100 µM
CCn1cc(C2=NCCO2)c(=O)c2ccc(-c3ccncc3)cc21,-,VERO,plaque count,>12.5 µg/mL
O=c1[nH]c(=O)n([C@@H]2O[C@@H](CO)C[C@H]2F)cc1Br,-,VERO,-,>100 µM
Cn1cc(NC(=O)c2cc(NC(=O)CN=C(N)N)cn2C)c(C(=O)NCCC(=N)N)c1,G,PRK,cytopathic effect,≥40 µg/mL
Nc1ncnc2c1c(Br)cn2[C@@H]1O[C@H](CO)[C@@H](O)[C@H]1O,G,PRK/E6SM,cytopathic effect,0.2 µg/mL
O=c1[nH]c(=O)n([C@H]2O[C@@H](CO)C[C@H]2F)cc1F,-,VERO,-,>100 µM
Nc1ncnc2c1ncn2CCOCP(=O)(O)O,G,-,cytopathic effect,26 µM
C1C2C3CC4C1C1C2NC3C41,-,BHK-21,plaque count,>25 µg/mL
O=c1[nH]c(=O)n([C@H]2C[C@H](O)[C@@H](CO)O2)cc1/C=C/Br,HS-47,HEL,cytopathic effect,>50 µg/mL
Cc1cccc2c1OP(=O)(OC[C@H]1O[C@@H](n3cc(/C=C/Br)c(=O)[nH]c3=O)C[C@@H]1OC(=O)[C@@H](N)CC(C)C)OC2,G (TK+),VERO,plaque count,>128 µg/mL
NC(=O)c1cn([C@H]2C[C@H](O)[C@@H](CO)O2)c2ncnc(N)c12,G,PRK,cytopathic effect,1 µg/mL
O=C(O)C(Cl)(Br)P(=O)(O)O,G,-,plaque count,790 µM
Cc1cn([C@H]2C[C@H](O)[C@@H](CO)O2)c(=O)[nH]c1=O,G,MRC-5,plaque count,>413 µM
C[C@H]1O[C@@H](O[C@H]2[C@@H](O)C[C@H](O[C@H]3[C@@H](O)C[C@H](O[C@H]4CC[C@@]5(C)[C@H](CC[C@@H]6[C@@H]5CC[C@]5(C)[C@@H](C7=CC(=O)OC7)CC[C@]65O)C4)O[C@@H]3C)O[C@@H]2C)C[C@H](O)[C@@H]1O,333,GMK AH1,plaque count,0.2 µM
CNc1ncnc2c1ncn2[C@H]1O[C@@H](CO)C[C@H]1F,-,VERO,-,>100 µM
CCc1cn([C@@H]2O[C@H](CO)[C@@H](O)[C@@H]2O)c(=O)[nH]c1=O,-,HEL,plaque count,>243 µM
CCC[CH2][Sn]([Cl])([CH2]CCC)[CH2]CCC,MS,HFF,plaque count,<1 µg/mL
O=c1ccn([C@@H]2O[C@@H](CO)[C@H](O)[C@H]2O)c(=O)[nH]1,G,VERO B,cytopathic effect,>1000 µM
Nc1ncnc2c1ccn2[C@@H]1O[C@H](CO)[C@H](O)[C@H]1O,LYONS,PRK,cytopathic effect,0.3 µg/mL
Nc1cc(OCCOCP(=O)(O)O)nc(N)n1,G,-,cytopathic effect,91 µM
Nc1ncc2ncn(CCOCP(=O)(O)O)c2n1,3 strains,Primary rabbit kidney cells,cytopathic effect,10 µg/mL
[Cl][Sn]([c]1ccccc1)([c]1ccccc1)[c]1ccccc1,MS,HFF,plaque count,<1 µg/mL
Nc1ncnc2c1ncn2[C@@H]1C[C@@H](O)[C@H](CO)O1,-,HFF,-,>100 µM
O=C(O)CP(=O)(O)O,HS-44,HEL,cytopathic effect,10.2 µg/mL
Nc1nc2c(ncn2[C@H]2C[C@@H](O)[C@H](CO)O2)c(=O)[nH]1,G,VERO B,cytopathic effect,>1000 µM
O=c1[nH]c(=O)n([C@@H]2O[C@H](CO)[C@@H](O)[C@@H]2F)cc1/C=C/Br,-,HEL,plaque count,24 µM
CCCCCC(=O)O[C@H]1C[C@H](n2cc(/C=C/Br)c(=O)[nH]c2=O)O[C@@H]1COP1(=O)OCc2cccc(C)c2O1,G (TK+),VERO,plaque count,>128 µg/mL
COc1cc(C[C@H]2C(=O)OC[C@@H]2Cc2ccc3c(c2)OCO3)cc(OC)c1OC,G,MRC-5,-,>11.9 µg/mL
C[C@H]1O[C@@H](O[C@H]2CC[C@@]3(C)[C@H](CC[C@@H]4[C@@H]3CC[C@]3(C)[C@@H](C5=CC(=O)OC5)C(O)C[C@]43O)C2)C[C@H](O)[C@@H]1O[C@@H]1O[C@H](CO)[C@@H](O)[C@H](O)[C@H]1O,333,GMK AH1,plaque count,0.45 µM
Nc1nccc2c1ncn2[C@@H]1O[C@H](CO)[C@@H](O)[C@H]1O,LYONS G 196,PRK,cytopathic effect,≥40 µg/mL
C[C@H](Cn1cnc2c(NC3CC3)ncnc21)OCP(=O)(O)O,-,-,-,0.7 µg/mL
CCO/N=C/c1ccc(OCCC2CCN(c3ccc(C)nn3)CC2)cc1,HGP,KB,neutral red,0.0008 µM
COc1cc(C[C@H]2C(=O)OC[C@@H]2Cc2cc(OC)c3c(c2)OCO3)cc(OC)c1OC,G,MRC-5,-,>50 µg/mL
[Cl][Sn]([Cl])([c]1ccccc1)[c]1ccccc1,MS,HFF,plaque count,0.9 µg/mL
C[C@H](Cn1cnc2c(N)ncnc21)OCP(=O)(O)O,G,-,cytopathic effect,≥350 µM
CC#Cc1cn([C@@H]2O[C@H](CO)[C@@H](O)[C@@H]2O)c(=O)[nH]c1=O,-,HEL,plaque count,>1135 µM
Cc1cc(C)c2c(c1)COP(=O)(OC[C@H]1O[C@@H](n3cc(/C=C/Br)c(=O)[nH]c3=O)C[C@@H]1O)O2,G (TK+),VERO,plaque count,>128 µg/mL
O=C(NCCc1c[nH]c2ccccc12)C1=Cc2ccncc2CC1,E194,HFF,plaque count,3.1 µM
Cc1cn([C@@H]2C[C@@H](O)[C@H](CO)O2)c(=O)[nH]c1=O,-,HFF,-,>100 µM
O=c1[nH]c(=O)n([C@@H]2O[C@H](CO)[C@@H](O)[C@@H]2O)cc1/C=C/Cl,-,HEL,plaque count,513 µM
CC(=O)Oc1ccc([C@@H]2CC(=O)c3c(cc(OC(C)=O)c(-c4c(OC(C)=O)cc5c(c4OC(C)=O)C(=O)C[C@@H](c4ccc(OC(C)=O)cc4)O5)c3OC(C)=O)O2)cc1,MS,HFF,cytopathic effect,>4 µg/mL
C=Cc1cn([C@@H]2O[C@H](CO)[C@@H](O)[C@@H]2F)c(=O)[nH]c1=O,-,HEL,plaque count,1.1 µM
Nc1nc2c(ncn2COC(CO)CO)c(=O)[nH]1,PCV-resistant/B,HEL,cytopathic effect,0.08 µg/mL
CCCCCCCCCCCCCCCC(=O)OC/C=C(C)/C=C/C=C(C)/C=C/C1=C(C)CCCC1(C)C,-,-,plaque count,100 µM
O=c1[nH]c(=O)n([C@H]2C[C@H](O)[C@@H](CO)O2)cc1I,-,HEL,plaque count,4.12 µM
CCCC[CH2][Sn]([Cl])([Cl])[CH2]CCCC,MS,HFF,plaque count,<1 µg/mL
Cc1c(C)c2c(c(C)c1O)CC[C@@](C)(CCC[C@H](C)CCC[C@H](C)CCCC(C)C)O2,-,-,plaque count,60 µM
N#Cc1cn([C@@H]2O[C@H](CO)C[C@H]2O)c2ncnc(N)c12,G,PRK,cytopathic effect,≥0.4 µg/mL
CO[C@H]1C[C@H](O[C@H]2[C@@H](O)C[C@H](O[C@H]3[C@@H](O)C[C@H](O[C@H]4CC[C@@]5(C)[C@H](CC[C@@H]6[C@@H]5CC[C@]5(C)[C@@H](C7=CC(=O)OC7)CC[C@]65O)C4)O[C@@H]3C)O[C@@H]2C)O[C@H](C)[C@H]1O,333,GMK AH1,plaque count,0.05 µM
N#Cc1cn([C@H]2C[C@H](O)[C@@H](CO)O2)c2ncnc(N)c12,G,PRK,cytopathic effect,0.3 µg/mL
Nc1nc(=S)n([C@H]2C[C@H](O)[C@@H](CO)O2)cc1I,G,MRC-5,plaque count,12.2 µM
CCn1cc2c(=O)n(-c3ccccc3)nc-2c2ccc(-c3ccncc3)cc21,-,VERO,plaque count,>100 µg/mL
Cc1cn([C@H]2C[C@@H](O)[C@H](CO)O2)c(=O)[nH]c1=O,G,VERO B,cytopathic effect,>1000 µM
O=c1ccn(CC(CO)OCP(=O)(O)O)c(=O)[nH]1,3 strains,Primary rabbit kidney cells,cytopathic effect,>400 µg/mL
O=c1[nH]c(=S)n([C@H]2C[C@H](O)[C@@H](CO)O2)cc1I,G,MRC-5,plaque count,1.57 µM
CCC(=O)O[C@H]1C[C@H](n2cc(/C=C/Br)c(=O)[nH]c2=O)O[C@@H]1COP1(=O)OCc2cccc(C)c2O1,G (TK+),VERO,plaque count,>64 µg/mL
Nc1nc2c(ncn2[C@@H]2O[C@@H](CO)[C@H](O)[C@H]2O)c(=O)[nH]1,G,VERO B,cytopathic effect,>1000 µM
CCCn1cc(C(N)=O)c(=O)c2ccc(-c3ccncc3)cc21,-,VERO,plaque count,>6.25 µg/mL
Nc1nc(N)c2ncn(CCOCP(=O)(O)O)c2n1,3 strains,Primary rabbit kidney cells,cytopathic effect,0.7 µg/mL

For reference, 6 entries again:

CNc1ncnc2c1ncn2[C@H]1O[C@@H](CO)C[C@H]1F ; cell line: VERO ; value: >100 µM
[Cl][Sn]([Cl])([c]1ccccc1)[c]1ccccc1 ; strain or isolate: MS ; cell line: HFF ; read by: plaque count ; value: 0.9 µg/mL
O=c1[nH]c(=O)n([C@@H]2O[C@@H](CO)C[C@H]2F)cc1Br ; cell line: VERO ; value: >100 µM
O=c1[nH]c(=O)n([C@H]2C[C@H](O)[C@@H](CO)O2)cc1/C=C/Br ; strain or isolate: HS-47 ; cell line: HEL ; read by: cytopathic effect ; value: >50 µg/mL
O=c1ccn(CC(CO)OCP(=O)(O)O)c(=O)[nH]1 ; strain or isolate: 3 strains ; cell line: Primary rabbit kidney cells ; read by: cytopathic effect ; value: >400 µg/mL
CCn1cc(C(N)=O)c(=O)c2ccc(Cl)cc21 ; cell line: VERO ; read by: plaque count ; value: >100 µg/mL

An empty or dashed field is not shown. ECn: concentration that inhibits the pathogen or its effect by n%.